From ChEMBL document CHEMBL1154023, “Carbonic anhydrase inhibitors. Inhibition of the beta-class enzyme from the pathogenic yeast Candida glabrata with anions” (Bioorg Med Chem Lett, 2009)

The chains behind the UniProt entries cited, without tags or fusion partners. Residues count along the entry.
UniProt Q6FTL6, 1-219: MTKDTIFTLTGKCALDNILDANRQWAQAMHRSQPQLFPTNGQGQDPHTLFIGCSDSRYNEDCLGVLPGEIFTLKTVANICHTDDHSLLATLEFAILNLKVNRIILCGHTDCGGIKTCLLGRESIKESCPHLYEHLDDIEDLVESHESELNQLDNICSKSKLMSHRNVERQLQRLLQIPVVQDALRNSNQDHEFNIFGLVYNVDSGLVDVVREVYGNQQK

Target: Carbonic anhydrase (Candida glabrata CBS 138, UniProt Q6FTL6)
Assay: Inhibition of Candida glabrata carbonic anhydrase by stopped flow CO2 hydration assay

## O=[As](O)(O)c1ccccc1
  Ki: 98 µM
